Test results as given in publication PMC4498294, “Tetrahydroisoquinolines affect the whole-cell phenotype of Mycobacterium tuberculosis by inhibiting the ATP-dependent MurE ligase” (Journal of Antimicrobial Chemotherapy, 2015).

system: M. bovis BCG Pasteur; test: not given; format: cell-based; conditions: RAW264.7 GIC50 divided by M. bovis BCG MIC

Row | SMILES | SI (=GIC50/MIC)
1 | COc1cc2c(c(O)c1OC)C[C@H]1c3c(cc4c(c3-2)OCO4)CCN1C [(S)-Leucoxine (1), (S)-Leucoxine] | 5.0
2 | Oc1cc2c(cc1O)C(Cc1ccccc1)NCC2 (centres unmarked) [Compound 3] | <0.81
3 | Oc1cc2c(cc1O)C(c1ccccn1)NCC2 (centres unmarked) [Compound 4] | <0.60
4 | COc1ccc(C2NCCc3cc(O)c(O)cc32)cc1 (centres unmarked) [Compound 5] | <0.91
5 | Oc1ccc(C2NCCc3cc(O)c(O)cc32)cc1 (centres unmarked) [Compound 6] | <0.92
6 | Oc1cccc(C2NCCc3cc(O)c(O)cc32)c1 (centres unmarked) [Compound 7] | <0.88
7 | Oc1cc2c(cc1O)C(c1ccccc1O)NCC2 (centres unmarked) [Compound 8] | <0.87
8 | Oc1cc2c(cc1O)[C@@H](O)CN[C@H]2Cc1ccccc1 [Compound 10] | >2.5
9 | O=C(O)[C@@H]1Cc2cc(O)c(O)cc2[C@@H](Cc2ccccc2)N1 [Compound 11] | <0.87
10 | CC(C)=CCC[C@H](C)CC1NCCc2cc(O)c(O)cc21 (some centres unmarked) [Compound 13] | >2.5
11 | OC[C@@H](O)[C@@H]1NCCc2cc(O)c(O)cc21 [Compound 14] | <0.85
12 | Nc1ccc2c(c1)CCNC2Cc1ccccc1 (centres unmarked) [Compound 15] | <1.9
13 | Oc1ccc2c(c1)CCNC2Cc1ccccc1 (centres unmarked) [Compound 16] | 2.0
14 | Oc1cccc(CC2NCCc3cc(O)c(O)cc32)c1 (centres unmarked) [Compound 17] | <0.64
15 | COc1ccc(CC2NCCc3cc(O)c(O)cc32)cc1OC (centres unmarked) [Compound 18] | <0.56
16 | COc1cc(CC2NCCc3cc(O)c(O)cc32)ccc1O (centres unmarked) [Compound 19] | <0.50
17 | Oc1cc2c(cc1O)C(Cc1ccc3c(c1)OCO3)NCC2 (centres unmarked) [Compound 20] | 1.9
18 | Oc1cc2c(cc1O)C(Cc1ccccc1Br)NCC2 (centres unmarked) [Compound 21] | <0.47
19 | CC1(C(=O)O)NCCc2cc(O)c(O)cc21 (centres unmarked) [Compound 22] | <1.8
20 | Oc1cc2c(cc1O)C(C1CCCCC1)NCC2 (centres unmarked) [Compound 23] | <0.45

Row | SMILES | SI (=GIC50/MIC)
21 | CCCCCCCCCC1NCCc2cc(O)c(O)cc21 (centres unmarked) [Compound 24] | 0.02
22 | C[C@@H]1NC(Cc2ccc3c(c2)OCO3)c2ccc(O)cc2[C@H]1O (some centres unmarked) [Compound 25] | <1.8
23 | O=C(O)[C@@H]1Cc2cc(O)c(O)cc2C(Cc2ccc3c(c2)OCO3)N1 (some centres unmarked) [Compound 26] | <1.8
24 | Oc1ccc2c(c1)CCNC2Cc1ccc2c(c1)OCO2 (centres unmarked) [Compound 27] | 1.5
25 | Oc1ccc(Br)c2c1C(Cc1ccc3c(c1)OCO3)NCC2 (centres unmarked) [Compound 28] | 2.3
26 | Oc1cc2c(cc1O)C(c1cccc3c1OCO3)NCC2 (centres unmarked) [Compound 29] | <0.75
27 | Oc1cc2c(cc1O)[C@@H](O)CNC2c1cccc2c1OCO2 (some centres unmarked) [Compound 30] | <0.89
28 | CN1C[C@H](O)c2cc(O)c(O)cc2[C@@H]1c1cccc2c1OCO2 [Compound 31] | <1.4
29 | CN1C[C@H](O)c2cc(O)c(O)cc2[C@H]1c1cccc2c1OCO2 [Compound 32] | <1.8
30 | Oc1cc2c(c(O)c1O)C(c1cccc3c1OCO3)NCC2 (centres unmarked) [Compound 33] | <0.055
31 | Oc1ccc2c(c1)CCNC2c1cccc2c1OCO2 (centres unmarked) [Compound 34] | <1.8
32 | Oc1ccc(Br)c2c1C(c1cccc3c1OCO3)NCC2 (centres unmarked) [Compound 35] | 2.0
33 | COc1ccc(Cl)c2c1C(Cc1ccc3c(c1)OCO3)NCC2 (centres unmarked) [Compound 36] | 1.0
34 | COc1ccc(Br)c2c1C(Cc1ccc3c(c1)OCO3)NCC2 (centres unmarked) [Compound 37] | 1.5
35 | COc1ccc(I)c2c1C(Cc1ccc3c(c1)OCO3)NCC2 (centres unmarked) [Compound 38] | 0.56
36 | COc1ccc(Cl)c2c1C(Cc1cc3c(cc1Br)OCO3)NCC2 (centres unmarked) [Compound 39] | 1.8
37 | COc1cccc2c1C(Cc1ccc3c(c1)OCO3)NCC2 (centres unmarked) [Compound 40] | <4.4
38 | NNC(=O)c1ccncc1 [Isoniazid, reference compound] | 30 000
39 | Oc1ccc(CC2NCCc3cc(O)c(O)cc32)cc1 (centres unmarked) [Norcoclaurine (2), Norcoclaurine] | <4.3
40 | CO[C@H]1/C=C/O[C@@]2(C)Oc3c(C)c(O)c4c(O)c(c(/C=N/N5CCN(C)CC5)c(O)c4c3C2=O)NC(=O)/C(C)=C\C=C\[C@H](C)[C@H](O)[C@@H](C)[C@@H](O)[C@@H](C)[C@H](OC(C)=O)[C@@H]1C [Rifampicin, reference compound] | 14 000

system: M. tuberculosis H37Rv; test: SPOTi growth inhibition assay, M. tuberculosis H37Rv; format: cell-based; conditions: RAW264.7 GIC50 divided by M. tuberculosis H37Rv MIC

Row | SMILES | SI against M. tuberculosis
41 | COc1cc2c(c(O)c1OC)C[C@H]1c3c(cc4c(c3-2)OCO4)CCN1C [(S)-Leucoxine (1), (S)-Leucoxine] | 4.17 and 4

Where “and” joins values, the source holds several entries; their conditions need not be identical. Equal entries are not always repeated.
